Anti-infective test results gathered from many reports (values: NIAID ChemDB through PubChem).

All rows: whole-cell or culture tests; agent: Herpes simplex virus 1

An empty or dashed field is not shown. Lines come from different laboratories, so protocols vary. ECn is the concentration giving n% inhibition of infection, replication or growth.

| compound | cells | endpoint | read by | strain | result |
|---|---|---|---|---|---|
| O=C(O)CP(=O)(O)O | VERO | EC50 | plaque count | 7401H | 24.4 µg/mL |
| Nc1nc2c(ncn2C[C@]2(CO)C[C@H]2CO)c(=O)[nH]1 | MRC-5 | EC50 | plaque count | Tomioka | 0.0093 µg/mL |
| O=c1[nH]c(=S)n([C@@H]2O[C@H](CO)[C@@H](O)[C@@H]2O)cc1CCO | RPMI8226 | EC50 | cytopathic effect | A4-3 (TK-) | >244.8 µM |
| COc1ncnc2c1cnn2Cc1cn(CCCCO)nn1 | E6SM | EC50 | - | KOS | >400 µg/mL |
| O=c1[nH]c(=O)n([C@H]2C[C@H](O)[C@@H](CO)O2)cc1Cl | Human skin fibroblasts | EC50 | cytopathic effect | - | 0.76 µM |
| Nc1ncnc2c1ncn2[C@@H]1C[C@H](COP(=O)(O)O)[C@@H](O)[C@H]1O | PRK | EC50 | cytopathic effect | - | 200 µg/mL |
| COC(=O)[C@H](C)NP(=O)(OC[C@H]1O[C@@H](n2cc(/C=C/Br)c(=O)[nH]c2=O)C[C@@H]1O)Oc1ccccc1 | E6SM | EC50 | cytopathic effect | KOS TK- acyclovir-resistant | 48 µM |
| O=C(O)/C=C/c1cn([C@@H]2O[C@H](CO)[C@@H](O)[C@@H]2O)c(=S)[nH]c1=O | RPMI8226 | EC50 | cytopathic effect | A4-3 (TK-) | >238.4 µM |
| O=c1[nH]c(=O)n([C@H]2C[C@H](O)[C@@H](CO)O2)cc1/C=C/Br | E6SM | EC50 | cytopathic effect | KOS TK- acyclovir-resistant | >16 µM |
| CC1(C)[C@@H](CCO)C[C@H]1n1cnc2c(=O)[nH]c(N)nc21 | E6SM | EC50 | cytopathic effect | TK-/VMW 1837 | >400 µg/mL |
| Nc1ncc2ncn(CC3(OCP(=O)(O)O)CC3)c2n1 | HEPG2 2.2.16 | EC50 | - | - | >30 µM |
| Cn1cc(C(=O)NCc2ccc(Cl)cc2)c(=O)c2cc(CN3CCOCC3)ccc21 | - | EC50 | plaque count | 6 isolates | 3.5 µM |
| O=C(NCc1ccc(Cl)cc1)c1c[nH]c2c(F)cc(CCCO)cc2c1=O | - | EC50 | - | TSD9 (E597 (A)) | 8.2 µM |
| CC1(CO)CCC(Cn2cnc3c(Cl)nc(N)nc32)C1(C)C | E6SM | EC50 | cytopathic effect | KOS | >100 µg/mL |
| Cc1c(NC(=O)OC(C)(C)C)ccc2nc(N3CCC[C@H]3C(=O)NCc3ccncc3)oc(=O)c12 | VERO | EC90 | plaque count | - | >12.5 µM |
| Cc1cc2nc3c4ccccc4n(Cc4ncc[nH]4)c3nc2cc1C | A549 | EC50 | ELISA | C42 | 3.8 µM |
| Cc1cn(CC2(OCP(=O)(O)O)CC2)c(=O)[nH]c1=O | HEPG2 2.2.17 | EC50 | - | - | >30 µM |
| Nc1nc(=S)n([C@@H]2O[C@H](CO)[C@@H](O)[C@@H]2O)cc1/C=C/c1ccccc1 | RPMI8226 | EC50 | cytopathic effect | A4-3 (TK-) | >258.7 µM |
| Nc1ncnc2c1ncn2C1C[C@H](CO)[C@@H](CO)C1 | E6SM | EC50 | - | - | 0.0001 µg/mL |
| OC[C@H]1O[C@H](c2cc(I)c(F)cc2F)C[C@@H]1O | E6SM | EC50 | cytopathic effect | VMW 1837 | >400 µg/mL |
| Nc1ncnc2c1ncn2C[C@H](O)CO | PRK | EC50 | cytopathic effect | KOS | 10 µg/mL |
| O=c1[nH]c(=O)n([C@H]2C[C@H](O)[C@@H](COP(=O)(O)O)O2)cc1CCc1ccccc1 | PRK | EC50 | cytopathic effect | F | 10 µg/mL |
| Nc1nc(Cl)c2ncn(CC3(OCP(=O)(O)O)CC3)c2n1 | HEPG2 2.2.21 | EC50 | - | - | >30 µM |
| Cc1cc([C@H]2C[C@H](O)[C@@H](CO)O2)c(F)cc1Cl | E6SM | EC50 | cytopathic effect | F | >400 µg/mL |
| Nc1ccn(C[C@@H](CO)OCP(=O)(O)O)c(=O)n1 | HFF | EC50 | plaque count | HL-34 | 1.7 µg/mL |
| O=c1[nH]c(=O)n([C@@H]2C[C@@H](O)[C@H](CO)O2)cc1I | - | EC50 | - | - | >100 µM |
| Nc1nc2c(ncn2CCCCO)c(=O)[nH]1 | VERO | EC50 | plaque count | 793-72 | 2 µM |
| CC(=O)OC[C@H]1[C@H](COC(C)=O)[C@@H](COC(C)=O)O[C@H]1n1cnc2c(N)ncnc21 | MEF | EC50 | plaque count | Clinical isolate HL-3 | 124 µM |
| CC(O)c1cn([C@@H]2O[C@H](CO)[C@@H](O)[C@@H]2O)c(=S)[nH]c1=O | RPMI8226 | EC50 | cytopathic effect | A4-3 (TK-) | >263.5 µM |
| CC1(C)[C@@H](CCO)C[C@H]1n1nnc2c(Cl)nc(N)nc21 | E6SM | EC50 | cytopathic effect | TK-/B2006 | 20 µg/mL |
| Nc1cc([C@H]2C[C@H](O)[C@@H](CO)O2)c(F)cc1F | E6SM | EC50 | cytopathic effect | F | >400 µg/mL |
| Nc1nc2c(ncn2CC(CO)CCO)c(=O)[nH]1 | BHK | EC50 | plaque count | C42 | 1.4 µM |
| CCc1cn([C@@H]2O[C@H](CO)[C@@H](O)[C@@H]2O)c(=S)[nH]c1=O | RPMI8226 | EC50 | cytopathic effect | KOS (TK+) | 0.58 µM |
| N#Cc1cn(C2O[C@H](CO)[C@@H](O)[C@H]2O)c(=O)[nH]c1=O | Primary rabbit kidney cells | EC50 | cytopathic effect | - | 370 µM |
| Cc1cc2nc3c4ccccc4n(CCN(C)C)c3nc2cc1C | HL | EC50 | - | C42 | 1.5 µM |
| CC1(C)[C@@H](CCO)C[C@H]1n1nnc2c(N)ncnc21 | E6SM | EC50 | cytopathic effect | KOS | >400 µg/mL |
| O=c1cc(-c2ccc(-c3ccccc3)cc2)oc2ccccc12 | VERO | EC50 | - | KOS | 2.4 µg/mL |
| Cc1cn(COCCO)c(=O)[nH]c1=O | - | EC50 | plaque count | - | >100 µM |
| O=c1ccn([C@@H]2C[C@H](CO)C[C@H]2CO)c(=O)[nH]1 | E6SM | EC50 | - | KOS | >100 µg/mL |
| Cc1c(NC(=O)OC(C)(C)C)ccc2nc(NC3(C(=O)N(C)CCc4ccccn4)CC3)oc(=O)c12 | VERO | EC90 | plaque count | - | >12.5 µM |
| Cc1cn([C@H]2C[C@H](O)[C@@H](CO)O2)c(=S)[nH]c1=O | RPMI8226 | EC50 | cytopathic effect | KOS (TK+) | 2.12 µM |
| Nc1nc2c(ncn2[C@@H]2C=C[C@H](CO)[C@@H](O)C2)c(=O)[nH]1 | E6SM | EC50 | cytopathic effect | F | 0.002 µg/mL |
| CCc1cn([C@H]2C[C@H](O)[C@@H](CO)O2)c(=S)nc1N | RPMI8226 | EC50 | cytopathic effect | KOS (TK+) | 0.04 µM |
| O=c1[nH]c(=O)n([C@H]2C[C@H](O)[C@@H](COP(=O)(O)O)O2)cc1/C=C/c1ccccc1 | PRK | EC50 | cytopathic effect | F | 30 µg/mL |
| CC1(C)C=C2[C@H]3CC[C@@H]4[C@@]5(C)CCC(=O)C(C)(C)[C@@H]5CC[C@@]4(C)[C@]3(C)CC[C@@]2(C(=O)O)CC1 | VERO | EC50 | plaque count | B2006 (TK-) | 2 µg/mL |
| [O-][n+]1onc2ncnc(N3CC[N+]4(CC3)CC[N+]3(CCN(c5ncnc6no[n+]([O-])c56)CC3)CC4)c21 | GMK | EC50 | plaque count | KUPKA | 8.1 µM |
| Cc1cc(C(=O)Nc2ccc3nc(NC(C)(C)C(=O)N(C)CCc4ccccn4)oc(=O)c3c2C)c(C(F)(F)F)o1 | VERO | EC90 | plaque count | - | >12.5 µM |
| O=c1[nH]c(=O)n([C@H]2C[C@H](O)[C@@H](CO)O2)cc1/C=C/Br | VERO | EC50 | plaque count | KOS | 0.15 µg/mL |
| O=C(O)P(=O)(O)O | RK-13 | EC50 | plaque count | Ara-A-resistant | 57 µM |
| O=c1[nH]c(=O)n([C@H]2C[C@H](O)[C@@H](CO)O2)cc1Br | Human skin fibroblasts | EC50 | cytopathic effect | - | 0.32 µM |
| Nc1nc2c(ncn2CC[C@@H](O)CO)c(=O)[nH]1 | VERO | EC50 | plaque count | C42 | 2.1 µM |
| Cc1c(NC(=O)CCNC(=O)OCc2ccccc2)ccc2nc(NC(C)(C)C(=O)N(C)CCc3ccccn3)oc(=O)c12 | VERO | EC90 | plaque count | - | >12.5 µM |
| Nc1ncnc2c1ncn2CC1(OCP(=O)(O)O)CC1 | HEPG2 2.2.18 | EC50 | - | - | >30 µM |
| Cc1c(NC(=O)c2ccc(-c3ccccc3)cc2)ccc2nc(NC(C)(C)C(=O)N(C)CCc3ccccn3)oc(=O)c12 | VERO | EC90 | plaque count | - | 0.7 µM |
| O=C(NCc1ccc(Cl)cc1)c1c[nH]c2ccc(C#CCO)cc2c1=O | - | EC50 | plaque count | - | 7.4 µM |
| Nc1ncn([C@@H]2CC[C@H](CO)O2)c(=O)n1 | - | EC50 | - | - | >100 µM |
| CC1(CO)CCC(Cn2nnc3c(=O)[nH]c(N)nc32)C1(C)C | E6SM | EC50 | cytopathic effect | KOS | >200 µg/mL |
| CC1(C)[C@@H](CCO)C[C@H]1n1nnc2c(N)nc(N)nc21 | E6SM | EC50 | cytopathic effect | TK-/VMW 1837 | 100 µg/mL |
| CC(=O)OC[C@H]1[C@H](COC(C)=O)[C@@H](CO)O[C@H]1n1cnc2c(N)ncnc21 | MEF | EC50 | plaque count | Clinical isolate HL-3 | 135 µM |
| CN(C)c1ccn(COCCO)c(=O)n1 | - | EC50 | plaque count | - | >100 µM |
| CC1(CO)CCC(Cn2cnc3c(=O)[nH]c(N)nc32)C1(C)C | E6SM | EC50 | cytopathic effect | KOS | >400 µg/mL |
| CCN(C(=O)N(C)CCc1ccccn1)c1nc2ccc(NC(=O)CCCNC(=O)c3cccnc3)c(C)c2c(=O)o1 | VERO | EC90 | plaque count | - | >12.5 µM |
| OC[C@H]1O[C@@H](c2cc(Cl)c(F)cc2F)C[C@@H]1O | E6SM | EC50 | cytopathic effect | KOS/ACV-R | >400 µg/mL |
| OCCCCn1nncc1Cn1ncc2c(SCc3ccccc3)ncnc21 | E6SM | EC50 | - | KOS | >400 µg/mL |
| CCN(C(=O)N(C)CCc1ccccn1)c1nc2ccc(NC(=O)CCCNC(=O)c3ccccn3)c(C)c2c(=O)o1 | VERO | EC90 | plaque count | - | >12.5 µM |
| OC[C@H]1O[C@H](c2cc(Cl)c(F)cc2F)C[C@@H]1O | E6SM | EC50 | cytopathic effect | McIntyre | >400 µg/mL |
| Nc1ncnc2c1cnn2Cc1cn(CCCCO)nn1 | E6SM | EC50 | - | VWM1837 | >400 µg/mL |
| Nc1ccn(COCCO)c(=O)n1 | - | EC50 | plaque count | - | >100 µM |
| OC[C@H]1CC(n2cnc3c(NC4CC4)ncnc32)C[C@@H]1CO | E6SM | EC50 | - | KOS (TK-) | >100 µg/mL |
| OC[C@H]1O[C@H](c2cc(Br)c(F)cc2F)C[C@@H]1O | E6SM | EC50 | cytopathic effect | F | >400 µg/mL |
| Nc1ncnc2c1ncn2[C@@H]1C[C@H](CO)[C@@H](O)[C@H]1O | PRK | EC50 | cytopathic effect | - | 2 µg/mL |
| OC[C@H]1O[C@H](c2ccc(F)cc2F)C[C@@H]1O | E6SM | EC50 | cytopathic effect | VMW 1837 | >400 µg/mL |
| CSc1ncnc2c1cnn2Cc1cnnn1CCCCO | E6SM | EC50 | - | VWM1837 | >400 µg/mL |
| Nc1nc(=S)n([C@@H]2O[C@H](CO)[C@@H](O)[C@@H]2O)cc1CO | RPMI8226 | EC50 | cytopathic effect | A4-3 (TK-) | >253.5 µM |
| O=c1[nH]c(=O)n([C@H]2O[C@@H](CO)[C@H](O)[C@@H]2O)cc1I | - | EC50 | - | - | >100 µM |

For reference, 10 entries again:

compound | cells | endpoint | read by | strain | result
OC[C@H]1O[C@H](c2ccc(F)cc2F)C[C@@H]1O | E6SM | EC50 | cytopathic effect | VMW 1837 | >400 µg/mL
Cc1cn(COCCO)c(=O)[nH]c1=O | - | EC50 | plaque count | - | >100 µM
O=c1[nH]c(=O)n([C@H]2C[C@H](O)[C@@H](COP(=O)(O)O)O2)cc1CCc1ccccc1 | PRK | EC50 | cytopathic effect | F | 10 µg/mL
Cc1cc(C(=O)Nc2ccc3nc(NC(C)(C)C(=O)N(C)CCc4ccccn4)oc(=O)c3c2C)c(C(F)(F)F)o1 | VERO | EC90 | plaque count | - | >12.5 µM
COc1ncnc2c1cnn2Cc1cn(CCCCO)nn1 | E6SM | EC50 | - | KOS | >400 µg/mL
O=c1[nH]c(=O)n([C@H]2C[C@H](O)[C@@H](CO)O2)cc1Cl | Human skin fibroblasts | EC50 | cytopathic effect | - | 0.76 µM
O=c1[nH]c(=O)n([C@H]2C[C@H](O)[C@@H](CO)O2)cc1/C=C/Br | E6SM | EC50 | cytopathic effect | KOS TK- acyclovir-resistant | >16 µM
CC1(CO)CCC(Cn2cnc3c(Cl)nc(N)nc32)C1(C)C | E6SM | EC50 | cytopathic effect | KOS | >100 µg/mL
Nc1nc(=S)n([C@@H]2O[C@H](CO)[C@@H](O)[C@@H]2O)cc1CO | RPMI8226 | EC50 | cytopathic effect | A4-3 (TK-) | >253.5 µM
O=c1ccn([C@@H]2C[C@H](CO)C[C@H]2CO)c(=O)[nH]1 | E6SM | EC50 | - | KOS | >100 µg/mL